Anti-infective test results gathered from many reports (values: NIAID ChemDB through PubChem).

Common to all: whole-cell or culture tests; agent: Human cytomegalovirus; cells: MRC-5; measure: EC50

An empty or dashed field is not shown. ECn is the concentration giving n% inhibition of infection, replication or growth. Lines come from different laboratories, so protocols vary.

smiles,strain,method,conditions,result
CC(O)c1cn([C@@H]2O[C@H](CO)[C@@H](O)[C@@H]2O)c(=S)nc1N,T-137,plaque count,-,159.1 µM
CC(C)Oc1ccccc1CNC(=O)c1ccc2cnccc2n1,D16,plaque count,-,0.2 µM
CCCc1cn([C@H]2C[C@H](O)[C@@H](CO)O2)c(=S)nc1N,93-1R,plaque count,-,>277.4 µM
CC#Cc1cn([C@@H]2O[C@H](COP(=O)(OCC(Cl)(Cl)Cl)Oc3ccccc3)[C@@H](O)[C@@H]2O)c(=O)[nH]c1=O,AD169,plaque count,-,>10 µM
C=Cc1cn([C@H]2C[C@H](O)[C@@H](CO)O2)c(=S)[nH]c1=O,93-1R,plaque count,-,>277.6 µM
Cc1cncc2ccc(C(=O)NCc3ccccc3OC(C)C)nc12,C8704 (ganciclovir-resistant UL97 mutant),plaque count,-,0.11 µg/mL
OC[C@H]1O[C@@H](n2c(Br)nc3cc(Cl)c(Cl)cc32)[C@H](O)[C@@H]1O,1038RC 4-3-2 (plaque-purified 1038RC strain),plaque count,-,6 µM
O=C(NCCc1ccccc1)C1=Cc2ccncc2CC1,AD169,plaque count,-,8.8 µM
CC#Cc1cn([C@H]2C[C@H](O)[C@@H](CO)O2)c(=O)[nH]c1=O,-,plaque count,-,>100 µM
CC#Cc1cn([C@@H]2O[C@H](COP(=O)(O)OCCCCCCCCCCCCCCCC)[C@@H](O)[C@@H]2O)c(=O)[nH]c1=O,AD169,plaque count,-,100 µM
O=C(O)/C=C/c1cn([C@@H]2O[C@H](CO)[C@@H](O)[C@@H]2O)c(=S)[nH]c1=O,93-1R,plaque count,-,>213 µM
CC(C)Nc1nc2cc(Cl)c(Cl)cc2n1[C@H]1O[C@@H](CO)[C@H](O)[C@@H]1O,C8912,plaque count,-,0.21 µM
O=c1[nH]c(=S)n([C@@H]2O[C@H](CO)[C@@H](O)[C@@H]2O)cc1CCO,93-1R,plaque count,-,>213 µM
CN(Cc1cnc2nc(N)nc(N)c2n1)c1ccc(C(=O)N[C@@H](CCC(=O)O)C(=O)O)cc1,TOWNE,hybridisation,72 h,0.05 µM
CCc1cn([C@H]2C[C@H](O)[C@@H](CO)O2)c(=S)nc1N,93-1R,plaque count,-,>277.4 µM
CC#Cc1cn([C@@H]2O[C@H](COP(=O)(O)Oc3ccc(F)cc3)[C@@H](O)[C@@H]2O)c(=O)[nH]c1=O,AD169,plaque count,-,>100 µM
CCCCCCCCCCCCCCCCCCOCCOP(=O)(O)CO[C@H](CO)Cn1ccc(N)nc1=O,C9208/3-3-1,plaque count,-,0.001 µM
O[C@@H]1[C@H](O)[C@H](O)CO[C@H]1n1c(Br)nc2cc(Cl)c(Cl)cc21,XBAF (deletion 591-593),plaque count,-,0.9 µM
OC[C@H]1O[C@@H](n2c(Br)nc3cc(Cl)c(Cl)cc32)[C@H](O)[C@@H]1O,9219REC7 (LEU595DEL),hybridisation,-,1 µM
Nc1nc2c(ncn2COC(CO)CO)c(=O)[nH]1,Isolate T137,plaque count,-,3.48 µM
Cc1cn([C@H]2C[C@H](O)[C@@H](CO)O2)c(=S)[nH]c1=O,AD169,plaque count,-,23 µM
COc1ccccc1CNC(=O)C1=Cc2ccncc2CC1,AD169,plaque count,-,15.5 µM
CCCCCCCCCCCCCCCCOCCCOP(=O)(O)CO[C@H](CO)Cn1ccc(N)nc1=O,TOWNE,plaque count,-,0.0009 µM
CC#Cc1cn([C@@H]2O[C@H](COP(=O)(OCC)Oc3ccccc3)[C@@H](O)[C@@H]2O)c(=O)[nH]c1=O,AD169,plaque count,-,>100 µM
Nc1nc2c(ncn2C[C@@H]2CC[C@H](P(=O)(O)O)O2)c(=O)[nH]1,-,plaque count,-,1.6 µg/mL
Nc1ccn(C[C@H]2COP(=O)(O)CO2)c(=O)n1,AD169,plaque count,-,0.31 µM
CCOP(=O)(O)CCC(CO)OCn1cnc2c(=O)[nH]c(N)nc21,DAVIS,plaque count,-,17 µg/mL
Nc1nc2c(ncn2COC(CO)COP(=O)(O)O)c(=O)[nH]1,DAVIS,plaque count,-,6.2 µM
C=Cc1cn([C@@H]2O[C@H](CO)[C@@H](O)[C@@H]2O)c(=S)[nH]c1=O,93-1R,plaque count,-,>213 µM
Nc1nc2c(ncn2C[C@@H]2CC[C@@H](P(=O)(O)O)O2)c(=O)[nH]1,C8704 (ganciclovir-resistant),plaque count,-,0.3 µg/mL
Nc1nc2c(ncn2COC2COP(=O)(O)OC2)c(=O)[nH]1,AD169,plaque count,-,5.9 µM
CC(O)c1cn([C@@H]2O[C@H](CO)[C@@H](O)[C@@H]2O)c(=S)[nH]c1=O,93-1R,plaque count,-,>213 µM

The first 2 rows once more:

smiles,strain,method,conditions,result
CC(O)c1cn([C@@H]2O[C@H](CO)[C@@H](O)[C@@H]2O)c(=S)nc1N,T-137,plaque count,-,159.1 µM
CC(C)Oc1ccccc1CNC(=O)c1ccc2cnccc2n1,D16,plaque count,-,0.2 µM